Compound potency records, mixed from different reports. Data source: NIAID ChemDB in PubChem.

Rows are shuffled and stem from different studies. Inhibition is in % at the dose shown (toxicity tests: loss of growth or viability). Fold resistance: result on the changed form divided by that on wild type. Blank or dashed fields: not listed here. ICn: concentration for n% inhibition. ECn: concentration that inhibits the pathogen or its effect by n%. A number after MIC or MFC names an inhibition level or a share of isolates.

structure | cells | kind | tested at | agent | read-out | strain or isolate | changes | target | method | result
Cc1ncc([N+](=O)[O-])n1CCO | RK-13 | culture | 0.1 µg/mL | Encephalitozoon intestinalis | inhibition | - | - | - | - | 17.1%
CC(C)c1cc(C(C)C)c(C(=O)Nc2nnc(NCc3ccco3)s2)c(C(C)C)c1 | - | target | - | Human cytomegalovirus | IC50 | - | - | Polymerase | - | >25 µM
CC1(C)S[C@H]([C@H](NC(=O)Cc2ccccc2)C(=O)NCc2ccccc2)N[C@H]1C(=O)NCCNC(=O)[C@@H]1N[C@@H]([C@H](NC(=O)Cc2ccccc2)C(=O)NCc2ccccc2)SC1(C)C | - | host protein | - | Human | IC50 | - | - | Renin | HPLC | >500 µM
Cc1c(CSc2cccc3ccccc23)cnc2nc(N)nc(N)c12 | RK-13 | culture | 0.1 µg/mL | Encephalitozoon intestinalis | inhibition | - | - | - | - | 4.1%
CN(C)[C@@H]1C(=O)C(C(N)=O)=C(O)[C@@]2(O)C(=O)C3=C(O)c4c(O)c(NC(=O)CNC(F)(F)F)cc(F)c4C[C@H]3C[C@@H]12 | - | culture | - | Enterococcus faecalis | EC50 | 159-tet | - | - | agar diffusion | 4 µg/mL
O=C(Nc1nnc(NCCC(c2ccccc2)c2ccccc2)s1)c1ccc(C(F)(F)F)cc1 | - | target | - | Human cytomegalovirus | IC50 | - | - | Polymerase | - | >25 µM
CC1(C)S[C@H]([C@H](NC(=O)Cc2ccccc2)C(=O)NCc2ccccc2)N[C@H]1C(=O)N[C@H](Cc1ccccc1)[C@H](O)CC(=O)NCc1ccccc1 | - | host protein | - | Sus domesticus | IC50 | - | - | Pepsin | nucleotide incorporation | >500 µM
Cc1c(CN(C)c2cccc3c2CCCC3)cnc2nc(N)nc(N)c12 | RK-13 | culture | 0.01 µg/mL | Encephalitozoon intestinalis | inhibition | - | - | - | - | 21.3%
O=C(Nc1nnc(NCCNc2ccccc2)s1)c1ccc2c(c1)C(=O)OC2=O | - | target | - | Human cytomegalovirus | IC50 | - | - | Polymerase | - | <25 µM
CCO/N=C/c1ccc(OCCC2CCN(c3ccc(C)nn3)CC2)cc1 | KB | culture | - | Rhinovirus | EC50 | 611-CV35 (ICAM-1 receptor group 59) | - | - | neutral red | 0.008 µM
CCN(C(=O)OCc1ccccc1)C1CCN(CC[C@](C)(CN(C)S(=O)(=O)c2ccccc2)c2ccccc2)CC1 | - | target | - | - | fold resistance | - | CCR5-E283A | CCR5 | radiometric | >250
Cc1ccnc2c1NC(=O)c1cccnc1N2C1CC1 | MT-4 | culture | - | HIV-1 | EC95 | - | RT-L74V L100I | - | - | 0.8 µM
Cc1cn([C@@H]2O[C@H](CO[Si](C)(C)C(C)(C)C)[C@@]3(OS(=O)(=O)C=C3N)[C@H]2O[Si](C)(C)C(C)(C)C)c(=O)[nH]c1=O | - | target | - | HIV | fold resistance | - | RT-N137Y | Reverse transcriptase | nucleotide incorporation / radiometric | 0.26
C=CCc1ccc(O)c(-c2ccc(O)c(CC=C)c2)c1 | - | culture | - | Candida albicans | MIC | TW 07239 | - | - | broth dilution | 64 µg/mL
CO[C@@H]1[C@H](OC(=O)NC(=O)CCl)CC[C@]2(CO2)[C@H]1[C@@]1(C)O[C@@H]1CC=C(C)C | RK-13 | culture | 1 µg/mL | Encephalitozoon intestinalis | inhibition | - | - | - | - | 84.1%
CN(C)c1cc(NC(=O)CNC(C)(C)C)c(O)c2c1C[C@H]1C[C@H]3[C@H](N(C)C)C(=O)C(C(N)=O)=C(O)[C@@]3(O)C(=O)C1=C2O | - | culture | - | Mycobacterium abscessus | MIC | x48 | - | - | broth dilution | 0.5 µg/mL
CN(CC(C)(CCN1CCC(N(CCO)C(=O)OCc2ccc([N+](=O)[O-])cc2)CC1)c1ccsc1)S(=O)(=O)c1ccccc1 | - | target | - | - | IC50 | - | - | CCR5 | radiometric | 0.002 µM
C#CC[C@@H](C(=O)N[C@H](/C=C/C(=O)OCC)C[C@@H]1CCNC1=O)n1cccc(NC(=O)c2cc(C)on2)c1=O | H1-HELA | culture | 0.092 µM | Rhinovirus | inhibition | Serotype 23 | - | - | cytopathic effect / XTT | 90%
CC(C)C(=O)N1C[C@H](CN2CCC(c3ccccc3)CC2)[C@@H](c2ccccc2)C1 | - | target | - | - | fold resistance | - | CCR5-W86A | CCR5 | radiometric | 6.92
CCC[C@H](NC(=O)[C@@H]1[C@H]2CCC[C@H]2CN1C(=O)[C@@H](NC(=O)[C@@H](NC(=O)c1cnccn1)C1CCCCC1)C(C)(C)C)C(=O)C(=O)NC1CC1 | - | host protein | - | - | IC90 | - | - | Plasmin | substrate cleavage | 110 µM
COc1cc(C[C@H](C)[C@H](C)Cc2ccc(O)c(O)c2)ccc1O | - | culture | - | Candida albicans | MIC80 | CCC 125-2000 | - | - | broth dilution | 62.5 µg/mL
CO[P@](=O)(c1cc(C)cc(/C=C/C#N)c1)c1c(C(N)=O)[nH]c2ccc(Cl)c(F)c12 | - | host protein | - | Human | IC50 | - | - | DNA polymerase beta | - | ≥422.2 µM
CC[C@H]1C(=O)Nc2ccc(F)cc2N1C(=O)OC(C)C | - | target | - | HIV | fold resistance | - | RT-N137Q | Reverse transcriptase | nucleotide incorporation / radiometric | 0.64
CCCCCCCCCCCNc1nnc(NC(=O)c2ccc(S(=O)(=O)F)cc2)s1 | - | target | - | Human cytomegalovirus | IC50 | - | - | Polymerase | - | <25 µM
O=C(Nc1ncc([N+](=O)[O-])s1)c1ccccc1O | RK-13 | culture | 0.01 µg/mL | Vittaforma corneae | inhibition | - | - | - | - | 57.1%
O=C(Nc1nnc(NCCC(c2ccccc2)c2ccccc2)s1)c1cc(F)cc(F)c1 | - | target | - | Human cytomegalovirus | IC50 | - | - | Polymerase | - | >25 µM
CCOC(=O)Nc1cc2[nH]c(-c3ccc4c(c3)OCO4)nc2c(NC(c2ccccc2)c2ccccc2)n1 | RK-13 | culture | 0.01 µg/mL | Encephalitozoon intestinalis | inhibition | - | - | - | - | 26.8%
O=C(Nc1nnc(NCc2ccco2)s1)c1ccc(Cl)c(Cl)c1 | - | target | - | Human cytomegalovirus | IC50 | - | - | Polymerase | - | >25 µM
CNC1CCc2cc(OC)c(OC)c(OC)c2-c2ccc(OC)c(=O)cc21 | RK-13 | culture | 0.1 µg/mL | Encephalitozoon intestinalis | inhibition | - | - | - | - | 59.2%
Cc1cn([C@@H]2O[C@H](CO[Si](C)(C)C(C)(C)C)C3(OS(=O)(=O)C=C3N)[C@H]2O[Si](C)(C)C(C)(C)C)c(=O)n(C)c1=O | - | target | - | HIV | IC50 | - | RT-N137Y | Reverse transcriptase | nucleotide incorporation / radiometric | 0.3 µM
CC[C@H]1OC(=O)[C@H](C)[C@@H](O[C@H]2C[C@@](C)(OC)[C@@H](O)[C@H](C)O2)[C@H](C)[C@@H](O[C@@H]2O[C@H](C)C[C@H](N(C)C)[C@H]2O)[C@](C)(OC)C[C@@H](C)C(=O)[C@H](C)[C@@H](O)[C@]1(C)O | - | culture | - | Mycobacterium bolletii | MIC | - | - | - | broth dilution | 2 µg/mL
O=c1cc(-c2ccc(O)cc2)oc2cc(O[C@@H]3O[C@H](CO)[C@@H](O)[C@H](O)[C@H]3OS(=O)(=O)O)cc(O)c12 | - | host protein | - | Molluscum contagiosum virus | IC50 | - | - | Topoisomerase | - | >200 µM
CCCSc1ccc2nc(NC(=O)OC)[nH]c2c1 | RK-13 | culture | 0.01 µg/mL | Encephalitozoon intestinalis | inhibition | - | - | - | - | 66%

Again, the opening 3 rows:

structure	cells	kind	tested at	agent	read-out	strain or isolate	changes	target	method	result
Cc1ncc([N+](=O)[O-])n1CCO	RK-13	culture	0.1 µg/mL	Encephalitozoon intestinalis	inhibition	-	-	-	-	17.1%
CC(C)c1cc(C(C)C)c(C(=O)Nc2nnc(NCc3ccco3)s2)c(C(C)C)c1	-	target	-	Human cytomegalovirus	IC50	-	-	Polymerase	-	>25 µM
CC1(C)S[C@H]([C@H](NC(=O)Cc2ccccc2)C(=O)NCc2ccccc2)N[C@H]1C(=O)NCCNC(=O)[C@@H]1N[C@@H]([C@H](NC(=O)Cc2ccccc2)C(=O)NCc2ccccc2)SC1(C)C	-	host protein	-	Human	IC50	-	-	Renin	HPLC	>500 µM